Compound potency records, mixed from different reports. Data source: NIAID ChemDB in PubChem.

Common to all: growth or infection tests

Rows are shuffled and stem from different studies. Zones are inhibition diameters on agar. Blank or dashed fields: not listed here. Inhibition is in % at the dose shown (toxicity tests: loss of growth or viability). A number after MIC or MFC names an inhibition level or a share of isolates. Two numbers with a dash give a range or band.

SMILES	agent	strain or isolate	changes	read by	measure	dose	value
C[C@H]1[C@H](O)[C@@H](C)/C=C/C=C/C=C/C=C/C=C/C=C/C=C/[C@H](O[C@@H]2O[C@H](C)[C@@H](O)[C@H](N)[C@@H]2O)C[C@@H]2O[C@](O)(C[C@@H](O)C[C@@H](O)CC[C@H](O)[C@@H](O)C[C@@H](O)CC(=O)O[C@H]1C)C[C@H](O)[C@H]2C(=O)O	Aspergillus terreus	Clinical isolate	-	XTT	MIC	-	1–2 µg/mL
Cc1cc(C=Nc2ccc(N=Cc3cc(C)cc(/C=N/Nc4nc5ccccc5s4)c3O)cc2)c(O)c(/C=C/Nc2nc3ccccc3s2)c1	Aspergillus niger	-	-	turbidity	inhibition	25 µg/mL	37.74%
Clc1ccc(-c2n[nH]c(COc3ncnc4ccccc34)n2)cc1	Aspergillus flavus	MTCC 277	-	-	MIC100	-	25 µg/mL
O=C(/C=C/c1ccc(OCCCCCCCCCCOc2ccc(/C=C/C(=O)c3ccccc3)cc2)cc1)c1ccccc1	Aspergillus janus	-	-	broth dilution	MIC	-	16 µg/mL
Cc1ccc(S(=O)(=O)CNc2oc3[nH]c(=O)[nH]c(=O)c3c2-c2ccsc2C=O)cc1	Aspergillus oryzae	-	-	agar diffusion / agar	zone	100 µg/mL	18 mm
C[C@H]1[C@H](O)[C@@H](C)/C=C/C=C/C=C/C=C/C=C/C=C/C=C/[C@H](O[C@@H]2O[C@H](C)[C@@H](O)[C@H](N)[C@@H]2O)C[C@@H]2O[C@](O)(C[C@@H](O)C[C@@H](O)CC[C@H](O)[C@@H](O)C[C@@H](O)CC(=O)O[C@H]1C)C[C@H](O)[C@H]2C(=O)O	Aspergillus fumigatus	Isolate AF210	-	-	MEC	-	2 µg/mL
CCCCNC(=S)N/N=C/C=C/c1ccccc1	Aspergillus parasiticus	CMT 0334	-	broth dilution	MIC	-	500 µg/mL
CC(C)=CCC[C@@H](C)CC=O	Aspergillus parasiticus	TISTR 3018	-	broth dilution	MIC	-	4050 µg/mL
O=C(/C=C/c1ccc(OCCCOc2ccc(/C=C/C(=O)c3ccccc3)cc2)cc1)c1ccccc1	Aspergillus janus	-	-	broth dilution	MIC	-	8 µg/mL
CCCCCOc1ccc(-c2ccc(-c3ccc(C(=O)N[C@H]4C[C@@H](O)[C@@H](O)NC(=O)[C@@H]5[C@@H](O)[C@@H](C)CN5C(=O)[C@H]([C@H](C)O)NC(=O)[C@H]([C@H](O)[C@@H](O)c5ccc(O)cc5)NC(=O)[C@@H]5C[C@@H](O)CN5C(=O)[C@H]([C@H](C)O)NC4=O)cc3)cc2)cc1	Aspergillus fumigatus	10AF	-	-	MFC	-	>100 µg/mL
CC(=O)N1CCN(c2ccc(OC[C@H]3CO[C@](Cn4ccnc4)(c4ccc(Cl)cc4Cl)O3)cc2)CC1	Aspergillus versicolor	Species complex	-	-	MIC50	-	0.5 µg/mL
C/C(=N\NC(=S)Nc1cccc(Cl)c1)c1c(O)ccc2c(C)cc(=O)oc12	Aspergillus niger	-	-	agar diffusion / agar	inhibition	25 µg/mL	51.91%
COc1ccc(C(=O)Cn2cncn2)cc1	Aspergillus fumigatus	-	-	broth dilution	inhibition	100 µg/mL	64%
Cc1ccc(NC(=S)N/N=C/c2c[nH]c3ccccc23)cc1	Aspergillus parasiticus	CMT 0334	-	broth dilution	MIC	-	500 µg/mL
COc1cc(/C=C2\SC(c3ccc(F)cc3)N(NC(=O)c3ccc(-n4c(-c5ccc(C)cc5)nc5ccccc5c4=O)cc3)C2=O)cc(OC)c1OC	Aspergillus clavatus	MTCC 1323	-	-	MIC100	-	1000 µg/mL
C[C@@H](c1nc(-c2ccc(C#N)cc2)cs1)[C@](O)(Cn1cncn1)c1cc(F)ccc1F	Aspergillus lentulus	-	-	broth dilution	MIC90	-	0.25 µg/mL
O=C(Cc1cc(=O)oc2cc(O)ccc12)N1NC(=Nc2ccccc2)SC=C1c1cc2ccccc2oc1=O	Aspergillus ochraceus	-	-	broth dilution	MIC50	-	0.01 µg/mL
c1ccc(C2=NN(c3ccccc3)C(c3ccc(OCCCCCCOc4ccc(C5CC(c6ccccc6)=NN5c5ccccc5)cc4)cc3)C2)cc1	Aspergillus janus	-	-	broth dilution	MIC	-	16 µg/mL
CCCC[C@@H](C)/C=C(C)/C=C(\C)C(=O)N/C(=C/[C@@](C)(O)/C=C/C=C/C=C/C(=O)NC1=C(O)CCC1=O)C(=O)[C@@H]1CO1	Aspergillus terreus	1	-	broth dilution	MIC	-	200 µM
COc1ccccc1/C=C1\SC(c2ccc(F)cc2)N(NC(=O)c2ccc(-n3c(-c4ccc(C)cc4)nc4ccccc4c3=O)cc2)C1=O	Aspergillus clavatus	MTCC 1323	-	-	MIC100	-	1000 µg/mL
Cc1cc(O)c2c(c1)C(=O)c1cc(O)c(O)c(O)c1C2=O	Aspergillus nidulans	-	alcA::mdpE	visual reading	MIC100	-	71–142 µM
CCCCCOc1ccc(-c2cc(-c3ccc(C(=O)N[C@H]4C[C@@H](O)[C@@H](O)NC(=O)[C@@H]5[C@@H](O)[C@@H](C)CN5C(=O)[C@H]([C@H](O)CC(N)=O)NC(=O)[C@H]([C@H](O)[C@@H](O)c5ccc(O)c(OS(=O)(=O)O)c5)NC(=O)[C@@H]5C[C@@H](O)CN5C(=O)[C@H]([C@@H](C)O)NC4=O)cc3)no2)cc1	Aspergillus fumigatus	19 isolates	-	-	MFC90	-	>64 µg/mL
O=c1oc2ccccc2cc1C1=NN/C(=N\Br)SC1	Aspergillus ochraceus	-	-	broth dilution	MIC50	-	0.01 µg/mL
S=C(N/N=C/c1c[nH]c2ccccc12)Nc1ccccc1	Aspergillus parasiticus	CMT 0334	-	broth dilution	MIC	-	500 µg/mL
CCOc1ccc2c(C(=O)N3NC(=NC)SC=C3c3c(O)c4ccccc4oc3=O)cc(=O)oc2c1	Aspergillus ochraceus	-	-	broth dilution	MIC50	-	0.1 µg/mL
Cn1nnnc1SCC(=O)N/N=c1/scc(-c2ccc(Br)cc2)n1-c1ccccc1	Aspergillus parasiticus	NRRL 465	-	broth dilution	MIC	-	19.3 µg/mL
C[C@H]1[C@H](O)[C@@H](C)/C=C/C=C/C=C/C=C/C=C/C=C/C=C/[C@H](O[C@@H]2O[C@H](C)[C@@H](O)[C@H](N)[C@@H]2O)C[C@@H]2O[C@](O)(C[C@@H](O)C[C@@H](O)CC[C@H](O)[C@@H](O)C[C@@H](O)CC(=O)O[C@H]1C)C[C@H](O)[C@H]2C(=O)O	Aspergillus nidulans	-	-	broth dilution	MIC90	-	14 µg/mL
OC(Cn1cncn1)c1ccc(F)cc1F	Aspergillus fumigatus	-	-	broth dilution	inhibition	100 µg/mL	54%
c1ccc(-c2ccc(C(c3ccccc3)n3ccnc3)cc2)cc1	Aspergillus versicolor	ATCC 11730	-	broth dilution	MIC	-	100 µg/mL
COc1ccc(/C=C2\SC(c3ccc(F)cc3)N(NC(=O)c3ccc(-n4c(-c5ccc(C)cc5)nc5ccccc5c4=O)cc3)C2=O)c(O)c1	Aspergillus clavatus	MTCC 1323	-	-	MIC100	-	500 µg/mL
CCCCCCCCOC(=O)[C@]1(O)C[C@@H](O)[C@@H](O)[C@H](OC(=O)/C=C/c2ccc(O)c(O)c2)C1	Aspergillus westerdijkiae	CBS 112803	-	absorbance	MIC50	-	500 µg/mL
Cc1nc2ccccc2n(CC(=O)NN2C(=O)CSC2c2ccccc2Cl)c1=O	Aspergillus nidulans	-	-	-	zone	50 µg/mL	7 mm
N=C(N)c1ccc(OCCCCCCOc2ccc(C(=N)N)cc2)cc1	Aspergillus terreus	-	-	agar diffusion / agar	MIC	-	33 µg/mL
C[C@@H](c1ncncc1F)[C@](O)(Cn1cncn1)c1ccc(F)cc1F	Aspergillus niger	-	-	broth dilution	MIC50	-	1 µg/mL
Fc1ccc(-c2n[nH]c(COc3ncnc4ccccc34)n2)cc1	Aspergillus flavus	MTCC 277	-	-	MIC100	-	25 µg/mL
Cc1ccc(-c2nc3ccccc3c(=O)n2-c2ccc(C(=O)NN3C(=O)/C(=C/c4ccc(O)cc4)SC3c3ccc(F)cc3)cc2)cc1	Aspergillus clavatus	MTCC 1323	-	-	MIC100	-	250 µg/mL
O=c1cc(CO)occ1O	Aspergillus terreus	UAB673	-	agar	MIC99	-	>12800 µM
COc1cc(/C=C/C(C)=O)ccc1O	Aspergillus ochraceus	MTCC 4643	-	broth dilution	MIC	-	911 µM
Cc1ccc(-c2nc3ccccc3c(=O)n2-c2ccc(C(=O)NN3C(=O)/C(=C/c4ccccc4Cl)SC3c3ccc(F)cc3)cc2)cc1	Aspergillus clavatus	MTCC 1323	-	-	MIC100	-	100 µg/mL
CC(C)NC(=S)N/N=C/c1c[nH]c2ccccc12	Aspergillus parasiticus	CMT 0334	-	broth dilution	MIC	-	500 µg/mL
Cc1nc(OCc2nc(-c3ccco3)n[nH]2)c2ccccc2n1	Aspergillus flavus	MTCC 277	-	-	MIC100	-	25 µg/mL
CCCCNC(=S)N/N=C/c1c[nH]c2ccccc12	Aspergillus parasiticus	CMT 0334	-	broth dilution	MIC	-	500 µg/mL
Cc1ccc(-c2nc3ccccc3c(=O)n2-c2ccc(C(=O)NN3C(=O)/C(=C/c4ccccc4[N+](=O)[O-])SC3c3ccc(F)cc3)cc2)cc1	Aspergillus clavatus	MTCC 1323	-	-	MIC100	-	500 µg/mL
c1ccc(C2=NN(c3ccccc3)C(c3ccc(OCCCCCCCCCCOc4ccc(C5CC(c6ccccc6)=NN5c5ccccc5)cc4)cc3)C2)cc1	Aspergillus janus	-	-	broth dilution	MIC	-	8 µg/mL
COc1ccc(-c2n[nH]c(COc3nc(C(F)(F)F)nc4ccccc34)n2)cc1OC	Aspergillus flavus	MTCC 277	-	-	MIC100	-	25 µg/mL
CN=C1NN(C(=O)Cc2cc(=O)oc3cc(O)ccc23)C(c2cc3ccccc3oc2=O)=CS1	Aspergillus ochraceus	-	-	broth dilution	MIC50	-	0.1 µg/mL
FC(F)(F)c1nc(OCc2nc(-c3cccs3)n[nH]2)c2ccccc2n1	Aspergillus flavus	MTCC 277	-	-	MIC100	-	25 µg/mL
O=C(/C=C/c1ccc(OCCOc2ccc(/C=C/C(=O)c3ccccc3)cc2)cc1)c1ccccc1	Aspergillus janus	-	-	broth dilution	MIC	-	16 µg/mL
c1ccc(-c2n[nH]c(COc3ncnc4ccccc34)n2)cc1	Aspergillus flavus	MTCC 277	-	-	MIC100	-	50 µg/mL
CCC(C)n1ncn(-c2ccc(N3CCN(c4ccc(OC[C@H]5CO[C@](Cn6cncn6)(c6ccc(Cl)cc6Cl)O5)cc4)CC3)cc2)c1=O	Aspergillus fumigatus	AF293	mpkC	broth dilution	inhibition	4 µg/mL	99.72%
COc1ccc(C(O)Cn2ccnc2)cc1	Aspergillus fumigatus	-	-	broth dilution	inhibition	100 µg/mL	73%
CCN=C1NN(C(=O)Cc2cc(=O)oc3cc(O)ccc23)C(c2cc3ccccc3oc2=O)=CS1	Aspergillus ochraceus	-	-	broth dilution	MIC50	-	0.1 µg/mL
Cc1ccc(S(=O)(=O)CNc2oc3[nH]c(=O)[nH]c(=O)c3c2-c2ccc(Cl)cc2)cc1	Aspergillus oryzae	-	-	agar diffusion / agar	zone	50 µg/mL	14 mm
Fc1ccc(-c2n[nH]c(COc3nc(C(F)(F)F)nc4ccccc34)n2)cc1	Aspergillus flavus	MTCC 277	-	-	MIC100	-	25 µg/mL
CCC(C)n1ncn(-c2ccc(N3CCN(c4ccc(OC[C@H]5CO[C@](Cn6cncn6)(c6ccc(Cl)cc6Cl)O5)cc4)CC3)cc2)c1=O	Aspergillus fumigatus	94 isolates	-	-	MFC90	-	4 µg/mL
Cc1ccc(S(=O)(=O)CNc2oc3[nH]c(=O)[nH]c(=O)c3c2-c2ccc([N+](=O)[O-])cc2)cc1	Aspergillus oryzae	-	-	agar diffusion / agar	zone	100 µg/mL	22 mm
CCCCCCNC(=S)N/N=C/c1ccnc2ccccc12	Aspergillus parasiticus	CMT 0334	-	broth dilution	MIC	-	500 µg/mL

Again, the opening 3 rows:

SMILES | agent | strain or isolate | changes | read by | measure | dose | value
C[C@H]1[C@H](O)[C@@H](C)/C=C/C=C/C=C/C=C/C=C/C=C/C=C/[C@H](O[C@@H]2O[C@H](C)[C@@H](O)[C@H](N)[C@@H]2O)C[C@@H]2O[C@](O)(C[C@@H](O)C[C@@H](O)CC[C@H](O)[C@@H](O)C[C@@H](O)CC(=O)O[C@H]1C)C[C@H](O)[C@H]2C(=O)O | Aspergillus terreus | Clinical isolate | - | XTT | MIC | - | 1–2 µg/mL
Cc1cc(C=Nc2ccc(N=Cc3cc(C)cc(/C=N/Nc4nc5ccccc5s4)c3O)cc2)c(O)c(/C=C/Nc2nc3ccccc3s2)c1 | Aspergillus niger | - | - | turbidity | inhibition | 25 µg/mL | 37.74%
Clc1ccc(-c2n[nH]c(COc3ncnc4ccccc34)n2)cc1 | Aspergillus flavus | MTCC 277 | - | - | MIC100 | - | 25 µg/mL